Test results reported in US20060115815A1 (priority 2002, published 2006).

Biological target: 84V90M (Human immunodeficiency virus type 1 group M subtype B, UniProt P04585, I572V/L578M)
Assay: Cell-based assay (MT-4) EC50, 84V90M
Design: species or system HIV-1
Details: read-out: Cell-based assay (MT-4) EC50 84V90M; MT-4, 84V90M; tested form: TFA

## CCOP(=O)(COc1ccc(C[C@@H]2[C@H](O)[C@@H](O)[C@@H](Cc3ccccc3)N(Cc3ccc4[nH]ncc4c3)C(=O)N2Cc2ccc3[nH]ncc3c2)cc1)OCC
  EC50: 40 nM
